Laboratory results from PubChem BioAssay AID540271 (Broad Institute, 2011).

Test system: S. cerevisiae expressing PfHSP40, growth rescue, plate reader
Experiment: Yeast growth rescue from Plasmodium falciparum HSP40 toxicity, dose response confirmatory, plate reader (AID 540271);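 also: yeast growth read after three days of incubation at 30 °C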

SMILES: CC(=O)OC1C(=O)OCC23CCC4(C)OC4C2OC2CC(OC(=O)C=CC=CC(=O)OCCC1C)C3(C)C21CO1 (stereo unspecified)
- AC50: 5.82 µM
